Measurements as given in patent US10357514B2, “Treatment of cancer using anti-CD19 Chimeric Antigen Receptor” (The Trustees of the University of Pennsylvania, priority 2014, dated 2019).

Test system: A/H1N1/California/07/2009 influenza
Experiment: Serum anti-influenza IgG and IgM before and 4 weeks post influenza vaccination
Assay type: in vivo, human
Conditions: 4 weeks post vaccination

CO[C@H]1C[C@@H]2CC[C@@H](C)[C@@](O)(O2)C(=O)C(=O)N2CCCC[C@H]2C(=O)O[C@H]([C@H](C)C[C@@H]2CC[C@@H](OCCO)[C@H](OC)C2)CC(=O)[C@H](C)/C=C(\C)[C@@H](O)[C@@H](OC)C(=O)[C@H](C)C[C@H](C)/C=C/C=C/C=C/1C [RAD001, (1R,9S,12S,15R,16E,18R,19R,21R,23S,24E,26E,28E,30S,32S,35R)-1,18-dihydroxy-12-{(1R)-2-[(1S,3R,4R)-4-(2-hydroxyethoxy)-3-methoxycyclohexyl]-1-methylethyl}-19,30-dimethoxy-15,17,21,23,29,35-hexamethyl-11,36-dioxa-4-aza-tricyclo[30.3.1.04,9]hexatriaconta-16,24,26,28-tetraene-2,3,10,14,20-pentaone]
change from baseline in anti-H1N1 influenza IgG and IgM levels vs placebo: No significant difference
